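Growth of Mycobacterium tuberculosis over 4 days (cholesterol / DPPC medium with tyloxapol); the read-out is not stated. Compounds at 500 µM. The record gives no direction; compounds that gave an IC50 in retests scored well above the rest, so higher reads as more growth inhibition. About 18,000 compounds were tested under these conditions; 5% (about 900) showed 50% or more at least once.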

Values are the deposited “Percent Effect”, in %. How 0% and 100% were set is not recorded. Most values in the screen are low, and negative values occur. The entries come from a sample that favours strong results.

SMILES: O=C(Nc1nnc[nH]1)c1ccc(N2CCOCC2)nc1
Percent Effect: 0.4795

SMILES: NCC1CCN(c2ccncc2)CC1
Percent Effect: -2.087

SMILES: COc1ccccc1NC(=O)NC(C)C
Percent Effect: -15.5

SMILES: O=C1CCC(C(=O)NCCc2ccc(F)cc2)N1 (stereo not shown)
Percent Effect: -2.55

SMILES: COc1cccc(CN(C)CC2CCS(=O)(=O)C2)c1 (stereo not shown)
Percent Effect: 4.645

SMILES: OCCNCCNCc1ccc(-c2ccccc2Cl)o1
Percent Effect: 93.99

SMILES: O=C1N(Cc2ccccc2)CCN1S(=O)(=O)Cl
Percent Effect: 72.5

SMILES: CCS(=O)(=O)CCCN
Percent Effect: -5.267

SMILES: O=C(Cc1ccc2c(c1)OCCO2)Nc1nncs1
Percent Effect: 0.6823

SMILES: CS(=O)(=O)N(c1ccc(OCCN)cc1)S(C)(=O)=O
Percent Effect: 4.704

SMILES: O=C(c1ccc(CN2CCSCC2)cc1)N1CCCC1
Percent Effect: 11.3

SMILES: COCc1cccc(C(=O)NC(CO)c2ccsc2)c1 (stereo not shown)
Percent Effect: -1.321

SMILES: NCC(=O)N1CCCC(CCc2ccccc2F)C1 (stereo not shown)
Percent Effect: 66.6

SMILES: NCCc1cc(C(F)(F)F)ccn1
Percent Effect: -22.59

SMILES: COCc1cccc(S(=O)(=O)N2CC[C@H](N)C2)c1
Percent Effect: -1.32

SMILES: Nc1ccc(CN2CCCC2)cn1
Percent Effect: -19.18

SMILES: COc1ncccc1CNS(=O)(=O)c1cccc(Cl)c1
Percent Effect: 53.16

SMILES: c1ccc(-c2noc(CN3CCNCC3)n2)cc1
Percent Effect: 26.93

SMILES: CC(C)N1CCC(NC(=O)c2c(Br)cnn2C)CC1
Percent Effect: 16.49

SMILES: CS(=O)(=O)CCNC(=O)NCc1ccc(C#N)cc1F
Percent Effect: -15.91

SMILES: CCNC(=O)CN(C)C(=O)c1cc(Cl)ccc1O
Percent Effect: 4.296

SMILES: Cc1cnn(CCNCc2ccc(C(N)=O)cc2)c1
Percent Effect: 2.82

SMILES: CCn1nnnc1SCc1cc(C#N)ccc1F
Percent Effect: 70.7

SMILES: COc1ccc(CCN)c(OC)c1
Percent Effect: 93.73

SMILES: CN(CC(=O)N1CCC2(CCCCC2)CC1)S(C)(=O)=O
Percent Effect: -4.154

SMILES: CC(=O)N1Cc2ccccc2C[C@H]1C(=O)N1CCCC1
Percent Effect: 8.663

SMILES: NCc1ccc2[nH]c(=O)oc2c1
Percent Effect: 4.416

SMILES: CN1CCCCC1C(=O)N1CCC(c2ncc[nH]2)CC1 (stereo not shown)
Percent Effect: 13.2

SMILES: COc1ccc(CC2CCN2)cc1 (stereo not shown)
Percent Effect: 63.73

SMILES: CN(CCCn1cccn1)C(=O)CN1CCCC(O)C1 (stereo not shown)
Percent Effect: 9.417

SMILES: NCCSCc1ccccc1F
Percent Effect: 43.39

SMILES: Cc1cc(C)cc(OCCNC(=O)CSCC(N)=O)c1
Percent Effect: 34.94

SMILES: CNC(=O)NC(=O)C(C)Nc1cccc(C)c1 (stereo not shown)
Percent Effect: 63.43

SMILES: COCCn1nc(-c2nc(CC(C)C)no2)ccc1=O
Percent Effect: 35.95

SMILES: CCS(=O)(=O)CC1(O)CCCCC1
Percent Effect: -10.81

SMILES: O=C(Cn1cc(Cl)cn1)N[C@@H]1CCNC[C@H]1O
Percent Effect: -3.35

SMILES: CC(=O)N[C@H]1CCN(CCn2c(=O)cc(C)[nH]c2=O)C1
Percent Effect: -5.335

SMILES: COc1c(F)cc(CN2CC[C@@H](N)[C@H](O)C2)cc1Cl
Percent Effect: 26.56

SMILES: OCC1CCCN(Cc2ccccc2)C1 (stereo not shown)
Percent Effect: 4.405

SMILES: Cc1ncccc1NS(=O)(=O)CCc1ccccc1
Percent Effect: -2.329

The first 4 entries again:

SMILES,Percent Effect
O=C(Nc1nnc[nH]1)c1ccc(N2CCOCC2)nc1,0.4795
NCC1CCN(c2ccncc2)CC1,-2.087
COc1ccccc1NC(=O)NC(C)C,-15.5
O=C1CCC(C(=O)NCCc2ccc(F)cc2)N1 (stereo not shown),-2.55

Measurements from “University of Dundee, Small-Polar-MMV Screening Library” (2021), ChEMBL document CHEMBL3988442.